{"source": "PubChem BioAssay AID624099 | ICCB-Longwood | 2012", "assay": "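Host factors E2 relies on to silence an HPV18 LCR reporter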 (primary screen)", "cells": "human C33A cervical carcinoma cells (HPV-negative) stably expressing BPV1 E2 and an HPV18 LCR luciferase reporter", "reagent": "siRNA pool against human genes, 40 nM", "time to read-out": "72 h", "measurement": "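Per-well luciferase luminescence, z-scored on each plate against the plate mean and SD with control wells left out, then averaged across three replicate plates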", "direction": "mean z-score and z-score: higher = stronger reporter signal, weaker E2 silencing", "rule for the call": "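Mean z ≥ 2 together with z ≥ 2 in two or more of the three replicates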", "note": "In all, the deposit lists about 21,000 reagents; this is a part drawn at random. 497 of all reagents (2.4%) count as active. 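Higher z means weaker E2 silencing; only reporter increases were scored, and knock-downs that hurt cell survival may mask genuine repressor factors.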 Entries without a mark were called inactive."}
{"gene": "CBY2", "PubChem SID": "SID134319628", "mean z-score": 0.04, "z-score, replicate A": 0.05, "z-score, replicate B": -0.03, "z-score, replicate C": 0.11}
{"gene": "LOC388065 (retired record)", "PubChem SID": "SID134328855", "mean z-score": 0.36, "z-score, replicate A": 0.5, "z-score, replicate B": 0.15, "z-score, replicate C": 0.43}
{"gene": "GSK3B", "PubChem SID": "SID56478468", "mean z-score": 0.98, "z-score, replicate A": 1.31, "z-score, replicate B": 0.82, "z-score, replicate C": 0.82}
{"gene": "OR2L13", "PubChem SID": "SID134313836", "mean z-score": 0.14, "z-score, replicate A": 0.26, "z-score, replicate B": 0.27, "z-score, replicate C": -0.11}
{"gene": "TFB2M", "PubChem SID": "SID134318231", "mean z-score": -1.54, "z-score, replicate A": -1.78, "z-score, replicate B": -1.42, "z-score, replicate C": -1.43}

Continued (2 carried over from the part before).
{"gene": "OR2L13", "PubChem SID": "SID134313836", "mean z-score": 0.14, "z-score, replicate A": 0.26, "z-score, replicate B": 0.27, "z-score, replicate C": -0.11}
{"gene": "TFB2M", "PubChem SID": "SID134318231", "mean z-score": -1.54, "z-score, replicate A": -1.78, "z-score, replicate B": -1.42, "z-score, replicate C": -1.43}
{"gene": "ADGRG4", "PubChem SID": "SID134310976", "mean z-score": -1.03, "z-score, replicate A": -1.15, "z-score, replicate B": -1.03, "z-score, replicate C": -0.91}
{"gene": "ARTN", "PubChem SID": "SID134314643", "mean z-score": -1.5, "z-score, replicate A": -1.45, "z-score, replicate B": -1.59, "z-score, replicate C": -1.45}
{"gene": "CTDP1-DT", "PubChem SID": "SID134322520", "mean z-score": -1.7, "z-score, replicate A": -1.64, "z-score, replicate B": -1.66, "z-score, replicate C": -1.79}
{"gene": "FAM87B", "PubChem SID": "SID134329621", "mean z-score": -0.45, "z-score, replicate A": -0.58, "z-score, replicate B": -0.55, "z-score, replicate C": -0.22}
{"gene": "ITGAV", "PubChem SID": "SID134310522", "mean z-score": -1.59, "z-score, replicate A": -1.35, "z-score, replicate B": -1.81, "z-score, replicate C": -1.61}
{"gene": "SLC23A1", "PubChem SID": "SID134312507", "mean z-score": -0.14, "z-score, replicate A": 0.02, "z-score, replicate B": -0.14, "z-score, replicate C": -0.28}
{"gene": "GADL1", "PubChem SID": "SID134325719", "mean z-score": 0.55, "z-score, replicate A": 0.34, "z-score, replicate B": 0.68, "z-score, replicate C": 0.62}
